Source: PMC7038234, “Screening of Natural Extracts for Inhibitors against Japanese Encephalitis Virus Infection” (Antimicrobial Agents and Chemotherapy, 2020)
Counter-ions that a name gives are not always drawn.

The compounds below were run on JEV strain AT31 (assay: microbe, parasite or virus in culture). Settings: Japanese encephalitis virus, 24 h, Primary screening of 1034 compounds in the natural extracts library.

| Compound | inhibition at 50 µM [%] |
| --- | --- |
| OC[C@H]1O[C@H](O[C@H]2[C@H](O)[C@@H](O)C(O)O[C@@H]2CO)[C@H](O)[C@@H](O)[C@@H]1O (mixture of isomers) [Maltose] | -5.29 |
| O=C1O[C@H]2[C@@H]3OC(=O)c4cc(O)c(O)c(O)c4-c4c(O)c(O)c5oc(=O)c6c(c(O)c(O)c7oc(=O)c4c5c76)-c4c(cc(O)c(O)c4O)C(=O)OC[C@H]3OC(O)[C@@H]2OC(=O)c2cc(O)c(O)c(O)c2-c2c1cc(O)c(O)c2O (mixture of isomers) [Punicalagin] | 42.6 |
| O=C1OC[C@H]2OC(O)[C@H](O)[C@@H](O)[C@@H]2OC(=O)c2cc(O)c(O)c(O)c2-c2c(O)c(O)c3oc(=O)c4c(c(O)c(O)c5oc(=O)c2c3c54)-c2c1cc(O)c(O)c2O (mixture of isomers) [Punicalin] | 28.2 |
| OC[C@H]1NC[C@H](O)[C@@H](O)[C@@H]1O [1-Deoxynojirimycin] | 95.2 |
| COc1ccc(C=O)c(O)c1 [2-Hydroxy-4-methoxybenzaldehyde] | -3.84 |
| COc1cc(C=CC(=O)O)cc(OC)c1OC [3,4,5-Trimethoxycinnamic acid] | -0.768 |
| COc1ccc(-c2oc3c(OC)c(OC)c(OC)c(OC)c3c(=O)c2OC)cc1OC [3,5,6,7,8,3',4'-Heptamethoxyflavone] | 33.5 |
| CCCCC[C@H](O)CC(=O)CCc1ccc(O)c(OC)c1 [6-Gingerol] | -4.11 |
| CCc1c2c(nc3ccc(O)cc13)-c1cc3c(c(=O)n1C2)COC(=O)[C@]3(O)CC [7-Ethyl-10-hydroxycamptothecin] | 66.4 |
| Cc1cc(=O)oc2cc(O)ccc12 [7-Hydroxy-4-methylcoumarin] | 2.48 |
| COc1c2occc2cc2ccc(=O)oc12 [8-Methoxypsoralen] | 3.57 |
| CC[C@@]1(O)C(=O)OCc2c1cc1n(c2=O)Cc2cc3c(N)cccc3nc2-1 [9-Aminocamptothecin] | 67.5 |
| CC1=CC(=O)CC(C)(C)[C@@]1(O)/C=C/C(C)=C\C(=O)O [Abscisic acid] | -3.11 |
| CCN1C[C@]2(COC)[C@H](O)C[C@H](OC)[C@@]34[C@@H]5C[C@@]6(O)[C@H](OC(=O)c7ccccc7)[C@@H]5[C@@](OC(C)=O)([C@@H]([C@H](OC)[C@H]23)[C@@H]14)[C@@H](O)[C@@H]6OC [Aconitine] | 22 |
| C1C2CC3CC1CC(C2)C3 [Adamantane] | -11.2 |
| C=CCS[S+]([O-])CC=C (stereo not drawn) [Allicin] | 39.7 |
| N#C[C@H](O[C@@H]1O[C@H](CO[C@@H]2O[C@H](CO)[C@@H](O)[C@H](O)[C@H]2O)[C@@H](O)[C@H](O)[C@H]1O)c1ccccc1 [Amygdalin] | 12.3 |
| COc1ccc(-c2cc(=S)ss2)cc1 [Anethole trithione] | 5.7 |
| C/C=C/c1ccc(OC)cc1 [Anethole] | 4.81 |
| COc1ccc(C(C)=O)c(O[C@@H]2O[C@H](CO[C@@H]3OC[C@](O)(CO)[C@H]3O)[C@@H](O)[C@H](O)[C@H]2O)c1 [Apiopaeonoside] | -4.8 |
| C=C1C(=O)O[C@@]23[C@H]1CC[C@@H](C)[C@@H]2CC[C@@]1(C)O[C@@H]31 [Arteannuin B] | 8.03 |
| CO[C@H]1O[C@@H]2O[C@@]3(C)CC[C@H]4[C@H](C)CC[C@@H]([C@H]1C)[C@@]24OO3 [Artemether] | -0.756 |

| Compound | inhibition at 50 µM [%] |
| --- | --- |
| C[C@H]1[C@H](OC(=O)CCC(=O)O)O[C@@H]2O[C@@]3(C)CC[C@H]4[C@H](C)CC[C@@H]1[C@@]24OO3 [Artesunate] | 14.2 |
| C[C@H]1[C@H](C)CC[C@]2(C(=O)O)CC[C@]3(C)C(=CC[C@@H]4[C@@]5(C)C[C@@H](O)[C@H](O)[C@@](C)(CO)[C@@H]5CC[C@]43C)[C@H]12 [Asiatic acid] | -51 |
| C=C1CCC[C@]2(C)C[C@]3(O)OC(=O)C(C)=C3C[C@@H]12 [AtractylenolideIII] | 7.63 |
| C=C1CCC[C@]2(C)C[C@@H]3OC(=O)C(C)=C3C[C@@H]12 [AtractylenolideII] | 56 |
| C=C1CCC[C@]2(C)C=C3OC(=O)C(C)=C3C[C@@H]12 [AtractylenolideI] | 16.5 |
| OCC1=C[C@@H](O)[C@@H]2C=CO[C@@H](O[C@@H]3O[C@H](CO)[C@@H](O)[C@H](O)[C@H]3O)[C@H]12 [Aucubin] | -8.82 |
| CC(C)=CCC/C(C)=C/COc1ccc2ccc(=O)oc2c1 [Auraptene] | 15.7 |
| O=c1c(O[C@@H]2O[C@@H](CO)[C@H](O)[C@H]2O)c(-c2ccc(O)c(O)c2)oc2cc(O)cc(O)c12 [Avicularin] | 7.15 |
| O=c1cc(-c2ccccc2)oc2cc(O)c(O)c(O)c12 [Baicalein] | -44.4 |
| O=C(O)[C@H]1O[C@@H](Oc2cc3oc(-c4ccccc4)cc(=O)c3c(O)c2O)[C@H](O)[C@@H](O)[C@@H]1O [Baicalin] | -23.8 |
| COc1ccc2cc3[n+](cc2c1OC)CCc1cc2c(cc1-3)OCO2 [Berberine Hydrochloride] | 29.1 |
| COc1c(O)cc2c(c1O)[C@@H]1O[C@H](CO)[C@@H](O)[C@H](O)[C@H]1OC2=O [Bergenin] | 26.5 |
| C=C(C)[C@@H]1CC[C@]2(CO)CC[C@]3(C)[C@H](CC[C@@H]4[C@@]5(C)CC[C@H](O)C(C)(C)[C@@H]5CC[C@]43C)[C@@H]12 [Betulin] | 5.56 |
| C=C(C)[C@@H]1CC[C@]2(C=O)CC[C@]3(C)[C@H](CC[C@@H]4[C@@]5(C)CC[C@H](O)C(C)(C)[C@@H]5CC[C@]43C)[C@@H]12 [Betulinaldehyde] | -52 |
| C=C(C)[C@@H]1CC[C@]2(C(=O)O)CC[C@]3(C)[C@H](CC[C@@H]4[C@@]5(C)CC[C@H](O)C(C)(C)[C@@H]5CC[C@]43C)[C@@H]12 [Betulinic acid] | -139 |
| CC(C)(C)[C@]1(O)CC2OC(=O)CC23C(=O)OC2OC(=O)[C@H](O)C231 (stereo partly drawn) [Bilobalide] | 1.84 |
| O=C(/C=C/c1ccc(O)cc1)CC(=O)/C=C/c1ccc(O)cc1 [Bisdemethoxycurcumin] | 4.74 |
| COC(=O)[C@@]12OC[C@]34[C@H]([C@@H](O)[C@@H]1O)[C@@]1(C)CC(=O)C(O)=C(C)[C@@H]1C[C@H]3OC(=O)[C@H](OC(=O)CC(C)C)[C@@H]24 [Bruceine A] | 34 |
| COc1cc2c(cc1OC)[C@@]13CCN4CC5=CCO[C@H]6CC(=O)N2[C@H]1[C@H]6[C@H]5C[C@H]43 [Brucine] | 2.81 |
| C[C@@H]1CC[C@@]2(OC1)O[C@H]1C[C@H]3[C@@H]4CC=C5C[C@@H](O)CC[C@]5(C)[C@H]4CC[C@]3(C)[C@H]1[C@@H]2C [Diosgenin] | 37.5 |
| COc1cc(O)ccc1/C=C/C(=O)c1ccc(O)cc1 [Echinatin] | 36.8 |
| O=c1oc2c(O)c(O)cc3c(=O)oc4c(O)c(O)cc1c4c23 [Ellagic acid] | 5.81 |

Each compound was assayed on JEV strain AT31 (assay: not given). Settings: not given.

| Compound | Inhibition (%) |
| --- | --- |
| Asiaticoside | 1.931 |
| Cucurbitacin B | 6.371 |
| Echinacoside | 57.985 |
| Echinocystic acid | -0.5587 |
| Evodiamine | 15.3001 |
| Ginkgolide B | -14.6694 |
| Ginkgolide C | -15.9339 |
| Harpagide | -1.46 |
| Isoeugenol | 1.471 |
| Isoliquiritin apioside | 6.157 |
| Kaempferol-3-O-rutinoside | -8.224 |
| Triolein | 3.456 |
| brusatol | 24.3348 |
| liquiritin apioside | 8.77 |

Same assay, conditions: Primary screening of 1034 compounds in the natural extracts library

| Compound | Inhibition (%) |
| --- | --- |
| C=C(C)[C@@H]1CC[C@@]2(C)CCC(=O)C(C)=C2C1 [α-Cyperone] | 3.063 |
| CC/C=C\C/C=C\C/C=C\CCCCCCCC(=O)O [α-Linolenic acid] | 13.9313 |
| CC(C)=CC[C@H](OC(=O)C=C(C)C)C1=CC(=O)c2c(O)ccc(O)c2C1=O [β, β-dimethyl-acry-lalkannin] | 95.9993 |
| (-)-Gallocatechin gallate | 94.9741 |
| Alisol B 23-acetate | 76.2599 |
| Anhydroicaritin | 86.4131 |
| Astragaloside I | -4.592 |
| BulleyaconitineA | 35.2049 |
| Emodin-1-O-β-D-glucopyranoside | -4.969 |
| Glucosyl-vitexin | 4.202 |
| Hecogenin | 0.5384 |
| Hosenkoside C | 19.2389 |
| Liriope muscari baily saponins C | 97.5501 |
| Madecassoside | 10.1302 |
| Maltopentaose | -13.9233 |
| Methyl hesperidin | -8.5605 |
| Mulberroside C | -17.6148 |
| Pseudoginsenoside F11 | 9.2512 |
| Santalol | 28.5828 |
| Stevenleaf | -22.5425 |
| Tubeimoside I | -148.437 |
| Worenine | -4.039 |
| alpha.-Terpineol | 5.562 |
| hydroxysaffloryellowA | 1.952 |
| ophiopogonin D' | 95.8658 |

Same assay, conditions: primary screening of 1034 compounds in the natural extracts library; red numbers = obvious cytotoxicity, blue numbers = insoluble in DMSO (colours not visible)

| Compound | Inhibition (%) |
| --- | --- |
| COc1c(O)cc2oc3cc(O)c(CC=C(C)C)c(O)c3c(=O)c2c1CC=C(C)C [α-mangostin] | -40.2602 |
| CC(C)=CC[C@@H](OC(=O)C=C(C)C)C1=CC(=O)c2c(O)ccc(O)c2C1=O [β,β-Dimethylacrylshikonin] | -31.5278 |
| (-)-Epicatechin gallate | 42.9048 |
| Clinodiside A | -20.1623 |
| Epimedin A | 0.5992 |
| Glycerite | 39.0701 |
| Liensinine perchlorate | 99.1037 |
| Mogroside Ⅴ | -27.6848 |
| Sodium Aescinate | 42.9768 |
| p-Hydroxy-cinnamic acid | -9.375 |
